Measured values from several laboratories, pooled; numbers as filed in NIAID ChemDB.

All rows: enzyme or target tests; species: Hepatitis C virus; target: NS5B polymerase

Two numbers with a dash give a range or band. An empty or dashed field is not shown. Inhibition is in % at the dose shown (toxicity tests: loss of growth or viability). Lines come from different laboratories, so protocols vary. ICn is the concentration giving n% inhibition.

smiles,endpoint,tested at,strain,result
CCC[C@]1(CC(=O)O)OCCc2c1[nH]c1c(C)ccc(C#N)c21,IC50,-,A5 genotype 1A,1.4 µM
COc1ccc(CCNC(=O)c2ccc3c(c2)nc(/C=C/c2ccccc2)n3C2CCCCC2)cc1OC,IC50,-,-,<1 µM
O=C(O)c1ccc2c(c1)nc(-c1ccc3ncc(-c4ccccc4)cc3c1)n2C1CCCCC1,inhibition,33 µM,-,94.16%
C[C@@H]1CCC[C@@H](C)C1n1c(-c2ccoc2)nc2cc(C(=O)N[C@@H](Cc3c[nH]c4ccc(O)cc34)C(=O)O)ccc21,IC50,-,-,<1 µM
O=C(NC1(C(=O)Nc2ccc(C(=O)O)c(Cl)c2)CCCC1)c1ccc2c(c1)nc(-c1ccoc1)n2C1CCCCC1,IC50,-,-,0.5–5 µM
O=C(O)c1ccc2c(c1)nc(-c1ccc3nc(-c4ccccc4Br)ccc3c1)n2C1CCCCC1,inhibition,33 µM,-,94.18%
O=C(O)CC(NC(=O)c1ccc2c(c1)nc(-c1ccccn1)n2C1CCCCC1)C1(C(=O)O)CCCC1,IC50,-,-,5–10 µM
CC(NC(=O)c1ccc2c(c1)nc(-c1ccoc1)n2C1CCCCC1)C(=O)Nc1ccc(C(C)C(=O)O)cc1,IC50,-,-,0.5–5 µM
O=C(O)c1ccc2c(c1)nc(-c1ccc3nc(-c4ccccc4)cnc3c1)n2C1CCCCC1,inhibition,100 µM,-,97.54%
O=C(NC1(C(=O)Nc2ccc3[nH]c(C(=O)O)cc(=O)c3c2)CCCC1)c1ccc2c(c1)nc(-c1ccoc1)n2C1CCCCC1,IC50,-,-,<0.5 µM
O=C(O)c1cccc(NC(=O)N2CCC(NC(=O)c3ccc4c(c3)nc(-c3ccoc3)n4C3CCCCC3)CC2)c1,IC50,-,-,10–25 µM
Cc1c(C(=O)O)sc2ccc(NC(=O)C3(NC(=O)c4ccc5c(c4)nc(-c4ccoc4)n5C4CCCCC4)CCCC3)cc12,IC50,-,-,<0.5 µM
COc1ccc(-c2ccccc2OC)c(-c2ccc3cc(-c4nc5cc(C(=O)O)ccc5n4C4CCCCC4)ccc3n2)c1,inhibition,33 µM,-,101%
O=C(N[C@H](C(=O)O)c1c[nH]c2ccc(O)cc12)c1ccc2c(c1)nc(Cc1ccccc1)n2C1CCCCC1,IC50,-,-,1–5 µM
C#CCn1c(C(=O)O)cc2cc(NC(=O)C3(NC(=O)c4ccc5c(c4)nc(-c4ccoc4)n5C4CCCCC4)CCCC3)ccc21,IC50,-,-,<0.5 µM

Repeating the first 2 entries:

smiles | endpoint | tested at | strain | result
CCC[C@]1(CC(=O)O)OCCc2c1[nH]c1c(C)ccc(C#N)c21 | IC50 | - | A5 genotype 1A | 1.4 µM
COc1ccc(CCNC(=O)c2ccc3c(c2)nc(/C=C/c2ccccc2)n3C2CCCCC2)cc1OC | IC50 | - | - | <1 µM